Measurements reported in PubChem BioAssay AID624099 (ICCB-Longwood, 2012)
Purpose: 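Human genes that papillomavirus E2 requires to repress the HPV18 LCR promoter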 (primary screen). Cells: human C33A cervical carcinoma cells (HPV-negative) stably expressing BPV1 E2 and an HPV18 LCR luciferase reporter. Knock-down reagent: siRNA pool against human genes, 40 nM. Timing: 72 h. Detection: 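Per-well luciferase luminescence, z-scored on each plate against the plate mean and SD with control wells left out, then averaged across three replicate plates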. Scale: mean z-score and z-score: higher = stronger reporter signal, weaker E2 silencing. Hit rule: 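Hit if mean z-score reaches 2 and two or more of three replicate z-scores also reach 2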.
The whole screen tested about 21,000 reagents; below is a random part of them. Of all reagents, 497 (2.4%) got an active call. 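Higher z means weaker E2 silencing; only reporter increases were scored, and knock-downs that hurt cell survival may mask genuine repressor factors.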 Entries without a mark were called inactive. No sequences are given here.

LRIG1: mean z-score = -1.05; z-score, replicate A = -1.06; z-score, replicate B = -1.32; z-score, replicate C = -0.76
INTS15: mean z-score = 0.22; z-score, replicate A = 0.13; z-score, replicate B = 0.29; z-score, replicate C = 0.23
DHRS4: mean z-score = 1.4; z-score, replicate A = 1.27; z-score, replicate B = 1.33; z-score, replicate C = 1.61
MAP3K13: mean z-score = 0.09; z-score, replicate A = 0.18; z-score, replicate B = 0.12; z-score, replicate C = -0.04
DRC10: mean z-score = -1; z-score, replicate A = -0.95; z-score, replicate B = -0.88; z-score, replicate C = -1.18
DTX3L: mean z-score = 0.13; z-score, replicate A = 0.53; z-score, replicate B = -0.25; z-score, replicate C = 0.09
RGS16: mean z-score = -1.09; z-score, replicate A = -1.23; z-score, replicate B = -1.21; z-score, replicate C = -0.82
UBAC1: mean z-score = -0.95; z-score, replicate A = -1.1; z-score, replicate B = -0.99; z-score, replicate C = -0.77
C1orf53: mean z-score = 0.49; z-score, replicate A = 0.73; z-score, replicate B = 0.66; z-score, replicate C = 0.08
RPRML: mean z-score = -0.79; z-score, replicate A = -0.83; z-score, replicate B = -0.85; z-score, replicate C = -0.68
SLC22A17: mean z-score = -0.01; z-score, replicate A = 0.25; z-score, replicate B = -0.23; z-score, replicate C = -0.06
SCN3B: mean z-score = -0.58; z-score, replicate A = -0.37; z-score, replicate B = -0.67; z-score, replicate C = -0.7

A run of entries taken from the entries so far, as a working copy:
RGS16: mean z-score = -1.09; z-score, replicate A = -1.23; z-score, replicate B = -1.21; z-score, replicate C = -0.82
UBAC1: mean z-score = -0.95; z-score, replicate A = -1.1; z-score, replicate B = -0.99; z-score, replicate C = -0.77
